PubChem BioAssay AID624099 – ICCB-Longwood – 2012

- Test: 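Human genes that papillomavirus E2 requires to repress the HPV18 LCR promoter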 (primary screen)
- Cells: human C33A cervical carcinoma cells (HPV-negative) stably expressing BPV1 E2 and an HPV18 LCR luciferase reporter
- Reagents: siRNA pool against human genes, 40 nM
- Time to read-out: 72 h
- Measured: 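HPV18 LCR reporter light per well, converted to plate-wise z-scores that exclude control wells, and averaged over triplicate plates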
- Direction: mean z-score and z-score: higher = stronger reporter signal, weaker E2 silencing
- Rule for the call: 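Mean z ≥ 2 together with z ≥ 2 in two or more of the three replicates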
This is a random part of about 21,000 reagents tested. Over the whole deposit, 497 (2.4%) were called active. 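Higher z means weaker E2 silencing; only reporter increases were scored, and knock-downs that hurt cell survival may mask genuine repressor factors.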 Entries without a mark were called inactive.

gene knocked down | mean z-score | z-score, replicate A | z-score, replicate B | z-score, replicate C
TMEM247 | -0.95 | -0.59 | -1.01 | -1.26
LAP3P2 | -0.25 | -0.51 | -0.09 | -0.15
HIF1AN | 0.7 | 0.55 | 0.8 | 0.73
MAPKAPK3 | 0.99 | 0.9 | 0.97 | 1.11
TMEM258 | 0.22 | 0.24 | 0.4 | 0.03
RESF1 | 1.82 | 1.7 | 2.07 | 1.69
PSMC5 | -0.99 | -0.99 | -1.07 | -0.93
ZNF611 | -0.08 | -0.37 | 0.16 | -0.02
VKORC1 | 0.65 | 0.55 | 0.59 | 0.8
ADAM32 | -0.27 | -0.51 | 0.07 | -0.36
CYP2C9 | 0.36 | 0.29 | 0.25 | 0.55
ZBTB3 | 0.06 | 0.08 | -0.22 | 0.33
REV1 | -1.14 | -1.23 | -1.29 | -0.9

The list goes on; the last 2 above are carried over.
gene knocked down | mean z-score | z-score, replicate A | z-score, replicate B | z-score, replicate C
ZBTB3 | 0.06 | 0.08 | -0.22 | 0.33
REV1 | -1.14 | -1.23 | -1.29 | -0.9
ACRBP | -0.65 | -0.54 | -0.63 | -0.77
CYB5A | 0.5 | 0.52 | 0.51 | 0.48
AMD1 | -1.31 | -1.43 | -1.38 | -1.13
EVI2B | -0.46 | -0.53 | -0.38 | -0.46
SLC51B | 1.39 | 1.29 | 1.48 | 1.39
CGB2 | 2.3 (active) | 2.21 | 2.39 | 2.29
ATP10D | -0.9 | -1.04 | -0.81 | -0.86
LOC401053 (retired record) | -0.71 | -0.57 | -0.55 | -0.99
CHL1 | 0.62 | 0.65 | 0.8 | 0.41
XIAP | -1.62 | -1.53 | -1.57 | -1.75
